Compound potency records, mixed from different reports. Data source: NIAID ChemDB in PubChem.

All rows: whole-cell or culture tests; organism: HIV-1

Rows are shuffled and stem from different studies.

structure	strain or isolate	read-out	conditions	read by	cells	mutations	value
CCOCn1c(Cc2cccc(CCC=O)c2)c(CC)c(=O)[nH]c1=O	RT-K103N Y181C Mutant NNRTI-resistant	EC50	-	cytopathic effect / MTT	MT-4	-	>100 µM
CC(C)c1c(C(C)c2ccc(F)cc2)n(COCc2ccccc2)c(=O)[nH]c1=O	IIIB	EC50	-	MTT	MT-4	K103N	>33.73 µM
COc1cc(Cc2cnc(/N=C3\C(=O)N(CN4CCN(C)CC4)c4ccc(F)cc43)nc2N)cc(OC)c1OC	IIIB	EC50	-	cytopathic effect / MTT	MT-4	-	>106.7 µg/mL
C=CCOc1cccc(Cc2[nH]c(=O)c(CC)c(O)c2CC)c1	IIIB	EC50	-	cytopathic effect / MTT	MT-4	-	>20 µM
CN1C(=O)[C@@H](c2cc(Cl)c(O)c(Cl)c2)NC(=O)[C@@H]2NC(=O)[C@H](c3cc(Cl)c(O)c(Cl)c3)NC(=O)[C@@H](NC(=O)C(=O)c3cc(Cl)c(O)c(Cl)c3)Cc3c[nH]c4cc(ccc34)-c3cc2cc(c3O)Oc2ccc(cc2)C[C@H]1C(=O)N[C@@H](C(=O)O)c1ccc(O)cc1	IIIB	EC50	-	cytopathic effect / MTT	MT-4	-	1.6 µM
Cc1cc(C)cc(C(=O)c2c(C(C)C)c(=O)[nH]c(=O)n2CC2=CCCC2)c1	IIIB	EC50	-	XTT	CEM	-	0.0005 µM
C=C(c1ccc(OC)cc1)c1c(C)c(=O)[nH]c(=O)n1COCc1ccccc1	IIIB	EC50	-	MTT	MT-4	-	>131 µM
CCn1cc(C(=O)O)c(=O)c2cc(F)c(N3CCN(CN4C(=O)/C(=N\c5ncc(Cc6cc(OC)c(OC)c(OC)c6)c(N)n5)c5cc(F)ccc54)CC3)cc21	IIIB	EC50	-	cytopathic effect / MTT	MT-4	-	12.1 µg/mL
O=C1Nc2ccccc2Sc2c1[nH]c1ccccc21	IIIB	EC50	-	cytopathic effect / MTT	MT-4	-	30 µM
COc1cc(Cc2cnc(/N=C3\C(=O)N(CN4CCN(c5c(F)cc6c(=O)c(C(=O)O)cn(C7CC7)c6c5OC)CC4C)c4ccc(F)cc43)nc2N)cc(OC)c1OC	IIIB	EC50	-	cytopathic effect / MTT	MT-4	-	25.2 µg/mL
COc1ccc(S(=O)(=O)N(CC2CCCC2)C[C@@H](O)CN(CCc2ccc(O)cc2)C(=O)O[C@H]2CCOC2)cc1	IIIB	EC90	-	p24	CEM	-	0.1 µM
C=CCCc1cccc(Cc2c(CC)c(=O)[nH]c(=O)n2COCC)c1	IIIB	EC50	-	cytopathic effect / MTT	MT-4	-	0.3 µM
COc1ccc(S(=O)(=O)N(CC(C)C)C[C@@H](O)CCN(CC2CCCC2)S(=O)(=O)Cc2cc(C)on2)cc1	IIIB	EC50	-	p24	CEM	-	<1 µM
CCc1c(Sc2cc(C)cc(C)c2)n(CC2CCC2)c(=O)[nH]c1=O	IIIB	EC50	-	XTT	CEM	-	0.002 µM
COc1cc(Cc2cnc(/N=C3\C(=O)N(CN4CCN(Cc5ccccc5)CC4)c4ccc(F)cc43)nc2N)cc(OC)c1OC	-	EC50	-	cytopathic effect / XTT	CEM	-	>112 µg/mL
O=C(C(=O)N1CCN(C(=O)c2ccccc2)CC1)c1c[nH]c2ccccc12	LAI	EC50	-	-	MT-2	-	0.086 µM
O=C1Nc2ccc(Cl)cc2[C@@](C#CC2CC2)(C(F)(F)F)O1	-	EC50	-	-	MT-4	K103N	0.0652 µM
O=C1Nc2ccccc2S(=O)(=O)c2c1[nH]c1ccccc21	IIIB	EC50	-	cytopathic effect / MTT	MT-4	-	14 µM
C=CCCc1cccc(Cc2c(CC)c(=O)n(COCC)c(=O)n2COCC)c1	RT-Y181C Mutant NNRTI-resistant	EC50	-	cytopathic effect / MTT	MT-4	-	>45 µM
CCOC(=O)c1[nH]c2ccccc2c1S(=O)(=O)c1cc(Cl)ccc1N	IIIB	EC50	-	cytopathic effect / MTT	MT-4	-	2.2 µM
CCCCOc1nc(N)c2c(n1)N(Cc1cccc(CN3CCCC3)c1)CC(=O)N2	NL4-3	EC50	pseudotyped	luciferase / reporter gene / luminescence	CD4+ T-cell	-	>7 µM
COc1cc(Cc2cnc(/N=C3\C(=O)N(CN4CCN(c5cccc(Cl)c5)CC4)c4ccc(F)cc43)nc2N)cc(OC)c1OC	IIIB	EC50	-	cytopathic effect / MTT	MT-4	-	>121.6 µg/mL
C=CCOc1cccc(Cc2c(CC)c(=O)[nH]c(=O)n2COCC)c1	RT-Y181C Mutant NNRTI-resistant	EC50	-	cytopathic effect / MTT	MT-4	-	7 µM
CCN(CC)CN1C(=O)/C(=N\c2ncc(Cc3cc(OC)c(OC)c(OC)c3)c(N)n2)c2cc(F)ccc21	IIIB	EC50	-	cytopathic effect / MTT	MT-4	-	>141 µg/mL
CCn1cc(C(=O)O)c(=O)c2cc(F)c(N3CCN(c4ccccc4OC)CC3)c(OC(F)F)c21	-	EC50	-	p24	PBMC	-	0.32 µM
C=CCCc1cccc(Cc2[nH]c(=O)[nH]c(=O)c2CC)c1	RT-Y181C Mutant NNRTI-resistant	EC50	-	cytopathic effect / MTT	MT-4	-	>66 µM
Cc1ccccc1C(C)c1c(C)c(=O)[nH]c(=O)n1COCc1ccccc1	IIIB	EC50	-	MTT	MT-4	Y181C	>343 µM
COc1ccc(S(=O)(=O)N(CC(C)C)CC(O)CCN2C[C@H]3CCCC[C@H]3C[C@H]2C(=O)NC(C)(C)C)cc1	IIIB	EC90	-	p24	CEM	-	1 µM
CCc1c(C(=O)c2cc(C)cc(C)c2)n(CC2CC2)c(=O)[nH]c1=O	IIIB	EC50	-	XTT	CEM	-	0.0002 µM
O=C(c1ccccc1)N(CCc1ccccc1)C[C@H](O)CN(CC1CCCC1)S(=O)(=O)Cc1cnc[nH]1	IIIB	EC90	-	p24	CEM	-	1 µM
Cc1cccc(C(C)c2c(C(C)C)c(=O)[nH]c(=O)n2COCc2ccccc2)c1	IIIB	EC50	-	MTT	MT-4	Y181C	5.57 µM
COc1ccc(S(=O)(=O)NC(Cc2ccccc2)C(F)(F)C(=O)[C@@H](Cc2ccccc2)NC(=O)OC2COCOC2)cc1	IIIB	EC90	-	p24	CEM	-	1 µM
CCOC(=O)c1[nH]c2ccccc2c1S(=O)(=O)c1ccccc1N	IIIB	EC50	-	cytopathic effect / MTT	MT-4	-	>200 µM
C=CCOc1cccc(Cc2nc(SCC(C)C)nc(OCC(C)C)c2CC)c1	RT-Y181C Mutant NNRTI-resistant	EC50	-	cytopathic effect / MTT	MT-4	-	>100 µM
CCc1c(Oc2cc(C)cc(C)c2)n(CC2CCC2)c(=O)[nH]c1=O	IIIB	EC50	-	XTT	CEM	-	0.01 µM
COc1ccc(S(=O)(=O)N(CC(C)C)C[C@@H](O)CCN(CC2CCCC2)S(=O)(=O)c2ccccn2)cc1	IIIB	EC90	-	p24	CEM	-	1 µM
OCCC#Cc1nc(-c2ccc(F)cc2)c(-c2ccncc2)n1CCCc1ccccc1	89.6	EC50	-	p24	PBMC	-	<1 µM
Cc1cc(C)cc(Sc2c(C(C)C)c(=O)[nH]c(=O)n2CC2=CCCC2)c1	IIIB	EC50	-	XTT	CEM	-	0.002 µM

ECn is the concentration giving n% inhibition of infection, replication or growth. Blank or dashed fields: not listed here.